Measured values taken from publication PMC6742228.

Assays:
[1] = biological target: A/Puerto Rico/8/1934 (H1) HA K55E (influenza A virus A/Puerto Rico/8/1934 (H1N1))
[2] = biological target: A/Puerto Rico/8/1934 (H1) HA K55E.V444L (influenza A virus A/Puerto Rico/8/1934 (H1N1))
[3] = biological target: A/Puerto Rico/8/1934 (H1) HA V444L (influenza A virus A/Puerto Rico/8/1934 (H1N1))

Substance	HA-pseudovirus neutralization titer (IC95), 293T cells [1]	HA-pseudovirus neutralization titer (IC95), 293T cells [2]	HA-pseudovirus neutralization titer (IC95), 293T cells [3]	Plaque reduction titer (IC50), replicating virus on MDCK cells [1]	Plaque reduction titer (IC50), replicating virus on MDCK cells [2]	Plaque reduction titer (IC50), replicating virus on MDCK cells [3]
MAb CR6261 (antibody)	0.43 mg/L	0.42 mg/L	0.38 mg/L	–	–	–
MAb C179 (antibody)	2.02 mg/L	2.81 mg/L	1.73 mg/L	25.7 mg/L	91.2 mg/L	68.8 mg/L
MAb FI6 (antibody)	0.53 mg/L	0.54 mg/L	0.49 mg/L	2.4 mg/L	5.9 mg/L	7.1 mg/L
